Measured values from several laboratories, pooled; numbers as filed in NIAID ChemDB.

Common to all: tests on isolated targets; organism: HIV-1; protein: Reverse transcriptase

ICn: concentration for n% inhibition.

structure | read by | read-out | mutations | strain | result
CCN1c2ncc(CN(C)c3ccccc3)cc2C(=O)N(C)c2ccc(Cl)nc21 | nucleotide incorporation / radiometric | IC50 | - | WT | <1 µM
Cc1csc(NC(=S)N[C@H](C)c2ccccc2)n1 | nucleotide incorporation / radiometric | IC50 | - | - | 0.8 µM
S=C(NCCc1ccc(Br)s1)Nc1ccccn1 | - | IC50 | - | - | 1.24 µM
O=c1c(O)c(-c2ccc(O)c(O)c2)oc2cc(O)c(O)c(O)c12 | - | Ki | - | - | 0.46 µM
O=C(Nc1cc(-c2ccc3c(c2)CCCC3)[nH]n1)c1ccno1 | RT activity / nucleotide incorporation / luminescence | IC50 | WT | NL4-3 | 0.92 µM
CCN1c2ncc(COc3cccnc3)cc2C(=O)N(C)c2ccc(Cl)nc21 | nucleotide incorporation / radiometric | IC50 | - | WT | <1 µM
COC1CCC(OC2CC(C3(C)CCC4(CC(O)C(C)C(C(C)/C=C(\C)C(=O)C(C)CC(C)C(=O)O)O4)O3)OC3(OC(C4OC(O)(CO)C(C)CC4C)CC3C)C2C)OC1C | RT activity | IC50 | - | - | >100 µg/mL
Nc1ncnc2c1ncn2[C@@H]1O[C@H](COP(=O)(O)OP(=O)(O)OP(=O)(O)O)C[C@@H]1F | nucleotide incorporation / radiometric | Ki | RT-Q151M | - | 6.4 µM
CCN1c2ncc(CSc3ncnc4[nH]ncc34)cc2C(=O)N(C)c2ccc(Cl)nc21 | nucleotide incorporation / radiometric | IC50 | RT-Y181C | - | <1 µM
CC(O)C\C=C/C=C\C=C\CCCCCCc1cccc(O)c1O | nucleotide incorporation / radiometric | IC50 | - | - | 78.1 µM
CO[C@@H]1C[C@@H](C[C@H]2CC[C@H](C)[C@H]([C@@H](C)C(=O)O)O2)O[C@]2(O[C@](C)([C@H]3CC[C@@](C)([C@@H]4O[C@@H]([C@H]5O[C@@](O)(CO)[C@H](C)C[C@@H]5C)C[C@@H]4C)O3)C[C@H]2C)[C@@H]1C | RT activity | IC50 | - | - | >100 µg/mL
Nc1nc2c([nH]c[n+]2[C@H]2C=C[C@@H](OCP(=O)(O)OP(=O)(O)OP(=O)(O)O)C2)c(=O)[nH]1 | RT activity | IC50 | - | - | 0.06 µM
CC(C)=CCN1Cc2cccc3[nH]c(=S)n(c23)C[C@@H]1C | nucleotide incorporation / radiometric | IC50 | RT-E89G | - | 5 µM
CC(O)/C=C/C=C/C=C\CCCCCCCc1cccc(O)c1O | nucleotide incorporation / radiometric | IC50 | - | - | 12.58 µM
Nc1ncnc2c1ncn2OCCOCP(=O)(O)O | RT activity | IC50 | - | - | 1.5 µM
C[C@H]1[C@H](O)c2c(c3c(c4c(-c5ccccc5)cc(=O)oc24)OC(C)(C)C=C3)O[C@@H]1C | scintillation proximity / radiometric | IC50 | - | IIIB | 0.038 µM
S=C(NCCc1ccc(Br)s1)Nc1ccc(Br)cn1 | - | IC50 | - | - | 0.92 µM
Nc1ccn([C@@H]2CS[C@H](COP(=O)(O)OP(=O)(O)OP(=O)(O)O)O2)c(=O)n1 | nucleotide incorporation / radiometric | Ki | RT-T215Y | - | 3.4 µM
C=CC1=C(N)C2(OS1(=O)=O)[C@@H](CO[Si](C)(C)C(C)(C)C)O[C@@H](n1cc(C)c(=O)[nH]c1=O)[C@@H]2O[Si](C)(C)C(C)(C)C | nucleotide incorporation | IC50 | RT-E138K | - | >500 µM
O=C(Nc1cc(-c2ccc3c(c2)CCCC3)[nH]n1)c1ccc(-c2ccncc2)s1 | RT activity / nucleotide incorporation / luminescence | IC50 | Y181C | NL4-3 | 0.22 µM
COc1ccc2c(c1)N(C(=O)OC(C)C)[C@@H](CSC)C(=S)N2 | RT activity | IC50 | - | - | 0.006 µg/mL
Cc1cn([C@H]2CC[C@@H](OP(=O)(O)OP(=O)(O)OP(=O)(O)O)C2)c(=O)[nH]c1=O | RT activity | IC50 | - | - | 7.9 µM
CCN1c2ncc(CCc3ccccc3)cc2C(=O)N(C)c2ccc(Cl)nc21 | nucleotide incorporation / radiometric | IC50 | RT-Y181C | - | <1 µM
Cc1cn([C@H]2C[C@H](N=[N+]=[N-])[C@@H](COP(=O)(O)CP(=O)(O)OP(=O)(O)O)O2)c(=O)[nH]c1=O | nucleotide incorporation | IC50 | - | IIIB | 4.6 µM
Cc1cnc(NC(=S)NCCc2ccc(Br)s2)s1 | - | IC50 | - | - | 4.3 µM
CC[C@@H]1O[C@@H]([C@]2(C)C[C@@H](C)[C@](O)([C@]3(C)CC[C@@H]([C@@H](O)[C@]4(O)O[C@H](C[C@@]5(O)O[C@@H]([C@@H](C)[C@H](O)C[C@@H]6O[C@H]([C@@H](C)C(=O)O)[C@@H](C)C[C@H]6C)CC[C@@H]5C)[C@@H](C)C[C@H]4C)O3)O2)CC[C@@]1(C)O | RT activity | IC50 | - | - | >100 µg/mL
CCN1c2ncc(COc3ccncc3)cc2C(=O)N(C)c2ccc(F)nc21 | nucleotide incorporation / radiometric | IC50 | RT-Y181C | - | <1 µM
COC(=O)/C=C/C1=C(N)C2(OS1(=O)=O)[C@@H](CO[Si](C)(C)C(C)(C)C)O[C@@H](n1cc(C)c(=O)n(C)c1=O)[C@@H]2O[Si](C)(C)C(C)(C)C | nucleotide incorporation | IC50 | RT-E138K | - | >500 µM
Cc1ccc(NC(=S)NCCc2ccc(Br)s2)nc1 | - | IC50 | - | - | 0.6 µM
COC(=O)/C=C/C1=C(N)C2(OS1(=O)=O)[C@@H](CO[Si](C)(C)C(C)(C)C)O[C@@H](n1cc(C)c(=O)[nH]c1=O)[C@@H]2O[Si](C)(C)C(C)(C)C | nucleotide incorporation | IC50 | RT-E138K | - | >500 µM
Cc1cn([C@H]2C[C@H](N=[N+]=[N-])[C@@H](COP(=O)(O)O)O2)c(=O)[nH]c1=O | nucleotide incorporation | IC50 | - | IIIB | >1000 µM
O=C(/C=C/c1ncccn1)Nc1cc(-c2ccc3c(c2)CCCC3)[nH]n1 | RT activity / nucleotide incorporation / luminescence | IC50 | WT | NL4-3 | 0.54 µM
CCN1c2ncc(COc3ccnc(C)c3)cc2C(=O)N(C)c2ccc(Cl)nc21 | nucleotide incorporation / radiometric | IC50 | - | WT | <1 µM
O=C(O)C(=NNc1ccc(Cl)cc1)C(=O)O | RT activity / nucleotide incorporation / luminescence | IC50 | WT | NL4-3 | 1.4 µM
Nc1ncnc2c1ncn2CCOCP(=O)(O)OP(=O)(O)OP(=O)(O)O | nucleotide incorporation / radiometric | Ki | RT-M184V | - | 0.12 µM

Lines come from different laboratories, so protocols vary. An empty or dashed field is not shown.